The text below walks through data of ChEMBL document CHEMBL4811225 (J Med Chem, 2021).

Protein sequences, listed by entry. Tags and fused reporters are not part of them.
UniProt P30926, whole entry, looked up: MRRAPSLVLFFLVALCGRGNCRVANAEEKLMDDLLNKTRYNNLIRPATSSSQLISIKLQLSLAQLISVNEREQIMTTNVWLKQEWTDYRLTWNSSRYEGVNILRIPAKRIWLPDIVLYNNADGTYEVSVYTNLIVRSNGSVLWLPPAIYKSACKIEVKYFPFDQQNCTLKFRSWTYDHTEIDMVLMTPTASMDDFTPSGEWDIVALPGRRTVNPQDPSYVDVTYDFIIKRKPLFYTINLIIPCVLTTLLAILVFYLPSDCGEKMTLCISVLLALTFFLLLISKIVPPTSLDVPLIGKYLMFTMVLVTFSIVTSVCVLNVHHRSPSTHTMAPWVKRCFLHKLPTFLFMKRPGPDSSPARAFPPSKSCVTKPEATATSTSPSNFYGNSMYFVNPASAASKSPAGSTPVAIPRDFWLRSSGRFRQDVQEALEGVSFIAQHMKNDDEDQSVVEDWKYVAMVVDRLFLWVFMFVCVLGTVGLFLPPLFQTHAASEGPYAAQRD
UniProt P32297, whole entry, looked up: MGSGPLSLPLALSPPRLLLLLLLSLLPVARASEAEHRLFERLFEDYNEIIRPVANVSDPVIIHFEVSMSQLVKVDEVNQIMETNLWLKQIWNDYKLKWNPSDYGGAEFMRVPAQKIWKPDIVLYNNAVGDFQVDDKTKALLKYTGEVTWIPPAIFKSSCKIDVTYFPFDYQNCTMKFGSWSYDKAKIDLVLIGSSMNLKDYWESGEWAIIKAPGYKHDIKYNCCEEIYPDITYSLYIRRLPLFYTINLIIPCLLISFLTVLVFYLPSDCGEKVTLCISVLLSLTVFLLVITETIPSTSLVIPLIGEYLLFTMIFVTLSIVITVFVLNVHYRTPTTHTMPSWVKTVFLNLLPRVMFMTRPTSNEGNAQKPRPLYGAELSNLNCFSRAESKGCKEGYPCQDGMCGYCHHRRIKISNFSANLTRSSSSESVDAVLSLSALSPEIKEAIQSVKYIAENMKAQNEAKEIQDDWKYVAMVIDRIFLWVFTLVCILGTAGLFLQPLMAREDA
UniProt Q15825, whole entry, looked up: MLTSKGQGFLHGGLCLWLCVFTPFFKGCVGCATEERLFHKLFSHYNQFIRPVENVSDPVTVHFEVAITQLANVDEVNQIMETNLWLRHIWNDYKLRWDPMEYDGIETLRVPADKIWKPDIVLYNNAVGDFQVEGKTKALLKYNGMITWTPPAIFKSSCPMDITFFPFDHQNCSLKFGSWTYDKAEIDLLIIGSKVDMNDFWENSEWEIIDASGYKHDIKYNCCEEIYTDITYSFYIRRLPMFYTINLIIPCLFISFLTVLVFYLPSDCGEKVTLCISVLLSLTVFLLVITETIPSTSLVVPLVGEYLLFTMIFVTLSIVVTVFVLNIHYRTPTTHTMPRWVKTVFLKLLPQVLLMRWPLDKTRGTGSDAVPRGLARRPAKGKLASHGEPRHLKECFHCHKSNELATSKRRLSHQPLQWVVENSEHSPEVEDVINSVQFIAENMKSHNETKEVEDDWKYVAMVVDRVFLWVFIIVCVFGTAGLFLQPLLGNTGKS
UniProt P04757, whole entry, looked up: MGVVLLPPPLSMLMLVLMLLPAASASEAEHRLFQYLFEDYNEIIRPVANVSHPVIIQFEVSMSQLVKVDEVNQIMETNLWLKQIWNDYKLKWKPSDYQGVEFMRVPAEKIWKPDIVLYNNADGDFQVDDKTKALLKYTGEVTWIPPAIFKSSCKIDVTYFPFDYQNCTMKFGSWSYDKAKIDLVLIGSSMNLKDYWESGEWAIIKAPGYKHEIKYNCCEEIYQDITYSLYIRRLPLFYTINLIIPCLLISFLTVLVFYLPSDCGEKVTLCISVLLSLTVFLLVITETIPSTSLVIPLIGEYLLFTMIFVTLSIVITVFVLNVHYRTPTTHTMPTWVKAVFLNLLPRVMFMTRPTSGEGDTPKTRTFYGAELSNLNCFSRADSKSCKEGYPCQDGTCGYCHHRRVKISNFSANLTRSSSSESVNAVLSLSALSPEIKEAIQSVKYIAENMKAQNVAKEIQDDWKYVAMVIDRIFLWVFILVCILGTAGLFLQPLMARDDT
UniProt P12392, whole entry, looked up: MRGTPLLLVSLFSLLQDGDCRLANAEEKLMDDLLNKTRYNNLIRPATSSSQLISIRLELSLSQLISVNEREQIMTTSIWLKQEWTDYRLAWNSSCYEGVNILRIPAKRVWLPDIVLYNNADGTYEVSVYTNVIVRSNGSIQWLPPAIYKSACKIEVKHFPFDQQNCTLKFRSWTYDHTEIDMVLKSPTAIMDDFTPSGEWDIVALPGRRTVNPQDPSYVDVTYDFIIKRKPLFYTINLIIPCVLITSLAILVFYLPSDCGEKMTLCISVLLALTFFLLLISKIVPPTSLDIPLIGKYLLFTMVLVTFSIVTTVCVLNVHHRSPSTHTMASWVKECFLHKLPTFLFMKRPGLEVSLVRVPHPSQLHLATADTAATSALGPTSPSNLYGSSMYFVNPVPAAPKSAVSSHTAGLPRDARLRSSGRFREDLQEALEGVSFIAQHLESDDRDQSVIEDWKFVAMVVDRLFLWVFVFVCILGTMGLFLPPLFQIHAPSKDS
UniProt P43143, whole entry, looked up: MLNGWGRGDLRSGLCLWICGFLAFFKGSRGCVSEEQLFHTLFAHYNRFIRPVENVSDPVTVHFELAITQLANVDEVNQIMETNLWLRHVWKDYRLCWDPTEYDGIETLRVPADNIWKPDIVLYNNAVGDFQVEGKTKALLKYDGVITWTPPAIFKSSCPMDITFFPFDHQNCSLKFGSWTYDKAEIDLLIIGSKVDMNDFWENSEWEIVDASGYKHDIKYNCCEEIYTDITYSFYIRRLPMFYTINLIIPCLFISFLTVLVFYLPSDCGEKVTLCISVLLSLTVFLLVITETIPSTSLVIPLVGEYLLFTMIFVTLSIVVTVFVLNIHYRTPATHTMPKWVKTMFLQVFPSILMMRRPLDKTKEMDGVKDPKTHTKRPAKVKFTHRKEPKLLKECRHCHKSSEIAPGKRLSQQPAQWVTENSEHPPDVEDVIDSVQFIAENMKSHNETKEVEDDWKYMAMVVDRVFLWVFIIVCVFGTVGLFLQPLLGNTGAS

Molecules are shown by their SMILES.

Format in all cases: cell-based
Common to all, as to settings: Oocyte

The target in assay [1] is T1, Nicotinic acetylcholine receptor alpha6/alpha3/beta4 (Homo sapiens, UniProt P30926+P32297+Q15825). Description: Inhibition of human alpha6/alpha3beta4 nAChR expressed in Xenopus laevis oocytes assessed as inhibition of acetylcholine-induced current response measured after 5 min by two-electrode voltage-clamp relative to peIA. (In general: Two-electrode voltage clamp is typically applied to oocytes expressing channels or transporters.)

Assay [2] concerns the target T2, Nicotinic acetylcholine receptor alpha6/alpha3/beta4 (Rattus norvegicus) (UniProt P04757+P12392+P43143). Description: Inhibition of rat alpha6/alpha3beta4 nAChR expressed in Xenopus laevis oocytes assessed as inhibition of acetylcholine-induced current response measured after 5 min by two-electrode voltage-clamp method relative to peIA.
Assay [3] has as its target T2, Nicotinic acetylcholine receptor alpha6/alpha3/beta4 (Rattus norvegicus). Description: Inhibition of rat alpha6/alpha3beta4 nAChR expressed in Xenopus laevis oocytes assessed as inhibition of acetylcholine-induced current response by measuring fold change measured after 5 min by two-electrode voltage-clamp method relative to peIA.
The target in assay [4] is T1, Nicotinic acetylcholine receptor alpha6/alpha3/beta4. Description: Inhibition of human alpha6/alpha3beta4 nAChR expressed in Xenopus laevis oocytes assessed as inhibition of acetylcholine-induced current response by measuring fold change measured after 5 min by two-electrode voltage-clamp method relative to peIA.

In the case of `CC(C)C[C@@H]1NC(=O)[C@H](CCC(=O)O)NC(=O)[C@@H]2CCCN2C(=O)[C@H](Cc2cnc[nH]2)NC(=O)[C@H](CC(N)=O)NC(=O)[C@H](C(C)C)NC(=O)[C@H](CO)NC(=O)[C@@H]2CSSC[C@H](NC(=O)CN)C(=O)N[C@@H](CSSC[C@@H](C(N)=O)NC1=O)C(=O)N[C@@H](C)C(=O)N[C@@H](Cc1cnc[nH]1)C(=O)N1CCC[C@H]1C(=O)N[C@@H](C)C(=O)N2`, the deltalogIC50 in assay [1] came out at 0.5; in assay [2] it was 0.1.

Regarding `CC(C)C[C@@H]1NC(=O)[C@H](CCC(=O)O)NC(=O)[C@@H]2CCCN2C(=O)[C@H](Cc2cnc[nH]2)NC(=O)[C@H](CC(N)=O)NC(=O)[C@H](CC(C)C)NC(=O)[C@H](CO)NC(=O)[C@@H]2CSSC[C@H](NC(=O)CN)C(=O)N[C@@H](CSSC[C@@H](C(N)=O)NC1=O)C(=O)N[C@@H](CO)C(=O)N[C@@H](Cc1cnc[nH]1)C(=O)N1CCC[C@H]1C(=O)N[C@@H](C)C(=O)N2`, the deltalogIC50 was 0.2 in assay [1] and -0.3 in assay [2]. Also, in assay [3], the fold change (FC) was > 3.

With `CC[C@H](C)[C@@H]1NC(=O)[C@H](CO)NC(=O)[C@@H]2CSSC[C@H](NC(=O)CN)C(=O)N[C@@H](CSSC[C@@H](C(N)=O)NC(=O)[C@H](CC(C)C)NC(=O)[C@H](CCC(=O)O)NC(=O)[C@@H]3CCCN3C(=O)[C@H](Cc3cnc[nH]3)NC(=O)[C@H](CC(N)=O)NC1=O)C(=O)N[C@@H](CO)C(=O)N[C@@H](Cc1cnc[nH]1)C(=O)N1CCC[C@H]1C(=O)N[C@@H](C)C(=O)N2`, the deltalogIC50 in assay [1] turned out to be 0.1; in assay [2], 0.4.

In the case of `CC(C)C[C@@H]1NC(=O)[C@H](CCC(=O)O)NC(=O)[C@@H]2CCCN2C(=O)[C@H](Cc2cnc[nH]2)NC(=O)[C@H](CC(N)=O)NC(=O)[C@H](C(C)C)NC(=O)[C@H](CCCNC(=N)N)NC(=O)[C@@H]2CSSC[C@H](NC(=O)CN)C(=O)N[C@@H](CSSC[C@@H](C(N)=O)NC1=O)C(=O)N[C@@H](CO)C(=O)N[C@@H](Cc1cnc[nH]1)C(=O)N1CCC[C@H]1C(=O)N[C@@H](C)C(=O)N2`, the deltalogIC50 in assay [1] was 1.2; in assay [2], 1.9. In assay [4], the fold change (FC) is 14.

`CC(C)C[C@@H]1NC(=O)[C@H](CCC(=O)O)NC(=O)[C@@H]2CCCN2C(=O)[C@H](Cc2cnc[nH]2)NC(=O)[C@H](CCC(=O)O)NC(=O)[C@H](C(C)C)NC(=O)[C@H](CO)NC(=O)[C@@H]2CSSC[C@H](NC(=O)CN)C(=O)N[C@@H](CSSC[C@@H](C(N)=O)NC1=O)C(=O)N[C@@H](CO)C(=O)N[C@@H](Cc1cnc[nH]1)C(=O)N1CCC[C@H]1C(=O)N[C@@H](C)C(=O)N2`: the deltalogIC50 amounted to 1 in assay [1] and 1.2 in assay [2].

For `CC(C)C[C@@H]1NC(=O)[C@H](CCC(=O)O)NC(=O)[C@@H]2CCCN2C(=O)[C@H](Cc2cnc[nH]2)NC(=O)[C@H](CCCCC(=O)O)NC(=O)[C@H](C(C)C)NC(=O)[C@H](CO)NC(=O)[C@@H]2CSSC[C@H](NC(=O)CN)C(=O)N[C@@H](CSSC[C@@H](C(N)=O)NC1=O)C(=O)N[C@@H](CO)C(=O)N[C@@H](Cc1cnc[nH]1)C(=O)N1CCC[C@H]1C(=O)N[C@@H](C)C(=O)N2`, the deltalogIC50 was 0.4 in assay [1] and 0.3 in assay [2]. Also, in assay [4], the fold change (FC) was 3.

On to `CC(C)C[C@@H]1NC(=O)[C@H](CC(N)=O)NC(=O)[C@@H]2CCCN2C(=O)[C@H](Cc2cnc[nH]2)NC(=O)[C@H](CC(N)=O)NC(=O)[C@H](C(C)C)NC(=O)[C@H](CO)NC(=O)[C@@H]2CSSC[C@H](NC(=O)CN)C(=O)N[C@@H](CSSC[C@@H](C(N)=O)NC1=O)C(=O)N[C@@H](CO)C(=O)N[C@@H](Cc1cnc[nH]1)C(=O)N1CCC[C@H]1C(=O)N[C@@H](C)C(=O)N2`, for which the deltalogIC50 stood at 0.4 in assay [1] and 0.1 in assay [2].

For the compound `CC(C)[C@@H]1NC(=O)[C@H](CO)NC(=O)[C@@H]2CSSC[C@H](NC(=O)CN)C(=O)N[C@@H](CSSC[C@@H](C(N)=O)NC(=O)[C@H](C)NC(=O)[C@H](CCC(=O)O)NC(=O)[C@@H]3CCCN3C(=O)[C@H](Cc3cnc[nH]3)NC(=O)[C@H](CC(N)=O)NC1=O)C(=O)N[C@@H](CO)C(=O)N[C@@H](Cc1cnc[nH]1)C(=O)N1CCC[C@H]1C(=O)N[C@@H](C)C(=O)N2`, the figures for the deltalogIC50 in assay [1] and in assay [2] were 1.1 and 0.3, respectively.

Turning to `CC(C)[C@@H]1NC(=O)[C@H](CO)NC(=O)[C@@H]2CSSC[C@H](NC(=O)CN)C(=O)N[C@@H](CSSC[C@@H](C(N)=O)NC(=O)[C@H](CCCNC(=N)N)NC(=O)[C@H](CCC(=O)O)NC(=O)[C@@H]3CCCN3C(=O)[C@H](Cc3cnc[nH]3)NC(=O)[C@H](CC(N)=O)NC1=O)C(=O)N[C@@H](CO)C(=O)N[C@@H](Cc1cnc[nH]1)C(=O)N1CCC[C@H]1C(=O)N[C@@H](C)C(=O)N2`, the deltalogIC50 in assay [1] was determined as 0.7; in assay [2] it was 0.5. Further, the fold change (FC) in assay [3] was < 3.

As for `CC(C)C[C@@H]1NC(=O)[C@H](CCC(=O)O)NC(=O)[C@H](C)NC(=O)[C@H](Cc2cnc[nH]2)NC(=O)[C@H](CC(N)=O)NC(=O)[C@H](C(C)C)NC(=O)[C@H](CO)NC(=O)[C@@H]2CSSC[C@H](NC(=O)CN)C(=O)N[C@@H](CSSC[C@@H](C(N)=O)NC1=O)C(=O)N[C@@H](CO)C(=O)N[C@@H](Cc1cnc[nH]1)C(=O)N1CCC[C@H]1C(=O)N[C@@H](C)C(=O)N2`, the deltalogIC50 in assay [1] stood at 1.1; in assay [2] it was 0.5. Also, the fold change (FC) in assay [3] stood at 3.

Turning to `CC(C)C[C@@H]1NC(=O)[C@H](CCC(=O)O)NC(=O)[C@@H]2CCCN2C(=O)[C@H](Cc2cnc[nH]2)NC(=O)[C@H](CC(N)=O)NC(=O)[C@H](CCCNC(=N)N)NC(=O)[C@H](CO)NC(=O)[C@@H]2CSSC[C@H](NC(=O)CN)C(=O)N[C@@H](CSSC[C@@H](C(N)=O)NC1=O)C(=O)N[C@@H](CO)C(=O)N[C@@H](Cc1cnc[nH]1)C(=O)N1CCC[C@H]1C(=O)N[C@@H](C)C(=O)N2`, the deltalogIC50 in assay [1] stood at 1.6; in assay [2], 1.1.

For the compound `CC(C)C[C@@H]1NC(=O)[C@H](CCC(=O)O)NC(=O)[C@@H]2CCCN2C(=O)[C@H](Cc2cnc[nH]2)NC(=O)[C@H](CC(N)=O)NC(=O)[C@H](C(C)C)NC(=O)[C@H](CO)NC(=O)[C@@H]2CSSC[C@H](NC(=O)CN)C(=O)N[C@@H](CSSC[C@@H](C(N)=O)NC1=O)C(=O)N[C@@H](CC(C)C)C(=O)N[C@@H](Cc1cnc[nH]1)C(=O)N1CCC[C@H]1C(=O)N[C@@H](C)C(=O)N2`, the results for the deltalogIC50 in assay [1] and in assay [2] were 1.1 and 1.5, respectively. In assay [3], the fold change (FC) came to 5.

Take `CC[C@H](C)[C@@H]1NC(=O)[C@@H]2CSSC[C@@H](C(N)=O)NC(=O)[C@H](CC(C)C)NC(=O)[C@H](CCC(=O)O)NC(=O)[C@@H]3CCCN3C(=O)[C@H](Cc3cnc[nH]3)NC(=O)[C@H](CC(N)=O)NC(=O)[C@H](C(C)C)NC(=O)[C@H](CO)NC(=O)[C@H](CSSC[C@H](NC(=O)CN)C(=O)N2)NC(=O)[C@H](C)NC(=O)[C@@H]2CCCN2C(=O)[C@H](Cc2cnc[nH]2)NC1=O`: the deltalogIC50 in assay [1] was 0.7; in assay [2], 1.2. The fold change (FC) in assay [3] turned out to be 5.

Regarding `CC(C)C[C@@H]1NC(=O)[C@H](CCC(=O)O)NC(=O)[C@@H]2CCCN2C(=O)[C@H](Cc2cnc[nH]2)NC(=O)[C@H](CC(N)=O)NC(=O)[C@H](C)NC(=O)[C@H](CO)NC(=O)[C@@H]2CSSC[C@H](NC(=O)CN)C(=O)N[C@@H](CSSC[C@@H](C(N)=O)NC1=O)C(=O)N[C@@H](CO)C(=O)N[C@@H](Cc1cnc[nH]1)C(=O)N1CCC[C@H]1C(=O)N[C@@H](C)C(=O)N2`, the deltalogIC50 in assay [1] was found to be 0.5; in assay [2], 0.1.

Take `CC(C)C[C@@H]1NC(=O)[C@H](CCC(=O)O)NC(=O)[C@@H]2CCCN2C(=O)[C@H](Cc2cnc[nH]2)NC(=O)[C@H](CC(N)=O)NC(=O)[C@H](C(C)C)NC(=O)[C@H](CO)NC(=O)[C@@H]2CSSC[C@H](NC(=O)CN)C(=O)N[C@@H](CSSC[C@@H](C(N)=O)NC1=O)C(=O)N[C@@H](C(C)C)C(=O)N[C@@H](Cc1cnc[nH]1)C(=O)N1CCC[C@H]1C(=O)N[C@@H](C)C(=O)N2`: the deltalogIC50 came to 0.6 in assay [1] and 0.9 in assay [2]. The fold change (FC) in assay [3] came out at 5.

Regarding `CC(C)C[C@@H]1NC(=O)[C@H](C)NC(=O)[C@@H]2CCCN2C(=O)[C@H](Cc2cnc[nH]2)NC(=O)[C@H](CC(N)=O)NC(=O)[C@H](C(C)C)NC(=O)[C@H](CO)NC(=O)[C@@H]2CSSC[C@H](NC(=O)CN)C(=O)N[C@@H](CSSC[C@@H](C(N)=O)NC1=O)C(=O)N[C@@H](CO)C(=O)N[C@@H](Cc1cnc[nH]1)C(=O)N1CCC[C@H]1C(=O)N[C@@H](C)C(=O)N2`, the deltalogIC50 amounted to 1 in assay [1] and 0.2 in assay [2].

As for `CC(C)C[C@@H]1NC(=O)[C@H](CCC(=O)O)NC(=O)[C@@H]2CCCN2C(=O)[C@H](Cc2cnc[nH]2)NC(=O)[C@H](CC(N)=O)NC(=O)[C@H](C(C)C)NC(=O)[C@H](CO)NC(=O)[C@@H]2CSSC[C@H](NC(=O)CN)C(=O)N[C@@H](CSSC[C@@H](C(N)=O)NC1=O)C(=O)N[C@@H](CCO)C(=O)N[C@@H](Cc1cnc[nH]1)C(=O)N1CCC[C@H]1C(=O)N[C@@H](C)C(=O)N2`, the deltalogIC50 was 0.6 in assay [1] and 0.7 in assay [2]. For the same compound, the fold change (FC) in assay [3] came to 5.

Turning to `CC(C)C[C@@H]1NC(=O)[C@H](CCC(=O)O)NC(=O)[C@@H]2CCCN2C(=O)[C@H](Cc2cnc[nH]2)NC(=O)[C@H](CC(N)=O)NC(=O)[C@H](C(C)C)NC(=O)[C@H](C)NC(=O)[C@@H]2CSSC[C@H](NC(=O)CN)C(=O)N[C@@H](CSSC[C@@H](C(N)=O)NC1=O)C(=O)N[C@@H](CO)C(=O)N[C@@H](Cc1cnc[nH]1)C(=O)N1CCC[C@H]1C(=O)N[C@@H](C)C(=O)N2`, the deltalogIC50 in assay [1] stood at 1; in assay [2], 0.5. Moreover, in assay [3], the fold change (FC) is 3.

For `CCCC[C@@H]1NC(=O)[C@H](CO)NC(=O)[C@@H]2CSSC[C@H](NC(=O)CN)C(=O)N[C@@H](CSSC[C@@H](C(N)=O)NC(=O)[C@H](CC(C)C)NC(=O)[C@H](CCC(=O)O)NC(=O)[C@@H]3CCCN3C(=O)[C@H](Cc3cnc[nH]3)NC(=O)[C@H](CC(N)=O)NC1=O)C(=O)N[C@@H](CO)C(=O)N[C@@H](Cc1cnc[nH]1)C(=O)N1CCC[C@H]1C(=O)N[C@@H](C)C(=O)N2`, the results for the deltalogIC50 in assay [1] and in assay [2] were 0.3 and 0.6, respectively.
